Data as given in patent US8835615B2, “2′-fluorine-4′-substituted-nucleoside analogues, preparation methods and uses thereof” (priority 2007, dated 2014).

Test system: HIV-1 IIIB
Test: Anti-HIV-1 activity in MT-4 cell culture (P24 antigen)
Type: cell-based
Conditions: for SI HIV-infected: CC50 of HIV-infected cells / IC50; for SI HIV-uninfected: CC50 of uninfected cells / IC50

Compound: [N-]=[N+]=NC1(CO)OC(n2ccc(N)nc2=O)C(F)C1O (stereo not shown) [Compound 15]
- SI HIV-infected: >100000
- SI HIV-uninfected: >100000

Compound: C#CC1(CO)OC(n2cnc3c(F)ncnc32)C(F)C1O (stereo not shown) [Compound 19]
- SI HIV-infected: 487
- SI HIV-uninfected: 422

Compound: Cc1cn([C@H]2C[C@H](N=[N+]=[N-])[C@@H](CO)O2)c(=O)[nH]c1=O [AZT, Zidovudine, reference compound]
- SI HIV-infected: >3434
- SI HIV-uninfected: >3434

Compound: C#CC1(CO)OC(n2ccc(N)nc2=O)C(F)C1O (stereo not shown) [Compound 1]
- SI HIV-infected: 432
- SI HIV-uninfected: 405

Compound: Cc1ccnc2c1NC(=O)c1cccnc1N2C1CC1 [NVP, Nevirapine, reference compound]
- SI HIV-infected: >3434
- SI HIV-uninfected: >3434

Compound: N#CC1(CO)OC(n2cc(F)c3c(O)ncnc32)C(F)C1O (stereo not shown) [Compound 46]
- SI HIV-infected: 370
- SI HIV-uninfected: 423

Compound: [N-]=[N+]=NC1(CO)OC(n2cc(F)c3c(N)ncnc32)C(F)C1O (stereo not shown) [Compound 50]
- SI HIV-infected: 12
- SI HIV-uninfected: 12

Compound: C#CC1(CO)OC(n2cc(F)c3c(N)ncnc32)C(F)C1O (stereo not shown) [Compound 52]
- SI HIV-infected: 311
- SI HIV-uninfected: 290

Compound: CC1(CO)OC(n2cnc3c(O)ncnc32)C(F)C1O (stereo not shown) [Compound 36]
- SI HIV-infected: 276
- SI HIV-uninfected: 296

Compound: N#CC1(CO)OC(n2cnc3c(N)ncnc32)C(F)C1O (stereo not shown) [Compound 39]
- SI HIV-infected: 26
- SI HIV-uninfected: 25

Compound: CC1(CO)OC(n2ccc(O)nc2=O)C(F)C1O (stereo not shown) [Compound 9]
- SI HIV-infected: 298
- SI HIV-uninfected: 291
